{
  "source": "ChEMBL document CHEMBL4725430",
  "about": "“Discovery of Zika Virus NS2B/NS3 Inhibitors That Prevent Mice from Life-Threatening Infection and Brain Damage” (ACS Med Chem Lett, 2020)",
  "system": "Zika virus",
  "assay": "Antiviral activity against Zika virus 976 Uganda infected in human HepG2 cells assessed as protection against viral infection by measuring cell survival at 100 uM measured after 4 days by CellTiter-Glo luminescent cell viability assay relative to control",
  "details": "time 4 day, strain 976 Uganda",
  "data": [
    {"smiles": "NC(=O)c1ncn([C@@H]2O[C@H](CO)[C@@H](O)[C@H]2O)n1", "note": "[RIBAVIRIN]", "values": [
      {"measurement": "Survival", "value": 82, "unit": "%"}
    ]}
  ]
}
